Measured values as given in the supplement of paper PMC9931576.
Human monoclonal antibodies against the spike receptor-binding domain (heavy:light variable regions). IC50 against pseudoviruses bearing the spike of naturally observed variants; lower = stronger; >10 µg/ml means not reached at the top dose. No active / inactive call. The stated detection limit is 0.0005 µg/ml; values near or below 0.001 µg/ml lie at the floor of the assay.

Assays:
Assay in all cases: pseudovirus neutralization IC50; higher = weaker neutralization
[1] = molecular target: SARS-CoV-2 Omicron BA.1 spike pseudovirus
Procedure: (§1)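 Single-round VSV luciferase pseudovirus mixed with antibody dilutions for 1 h and put on Huh-7 cells for about a day; IC50 from the dose curve.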

[2] = molecular target: SARS-CoV-2 Omicron BA.2 spike pseudovirus
Procedure: as §1

[3] = molecular target: SARS-CoV-2 Omicron BA.2.75 spike pseudovirus
Procedure: as §1

[4] = molecular target: SARS-CoV-2 Omicron BA.5 spike pseudovirus
Procedure: as §1

[5] = molecular target: SARS-CoV-2 Omicron BQ.1.1 spike pseudovirus
Procedure: as §1

[6] = molecular target: SARS-CoV-2 Omicron XBB spike pseudovirus
Procedure: as §1

[7] = molecular target: SARS-CoV-2 early D614G spike pseudovirus
Procedure: as §1

Binder	pseudovirus neutralization IC50 [1] [µg/mL]	pseudovirus neutralization IC50 [2] [µg/mL]	pseudovirus neutralization IC50 [3] [µg/mL]	pseudovirus neutralization IC50 [4] [µg/mL]	pseudovirus neutralization IC50 [5] [µg/mL]	pseudovirus neutralization IC50 [6] [µg/mL]	pseudovirus neutralization IC50 [7] [µg/mL]
BD56-1397 (protein) chain 1: QVQLVQSGAEVKKPGASVRVSCKASGYTFSDYYIHWVRQAPGQGLEWMGIVNPGGQSTAYAQKFQGRVAMTSATSTSTAYMELRSLKSEDTAVYYCARDAAAVPAALGGEYWGQGTLVTVSS chain 2: EVVLTQSPATLSLSPGERATLSCRASQSISSYLAWYQQKAGQAPRLLIYDVSNRATGIPARFSGSGSGTDFTLTISSLEPEDFAVYYCQQRSNWPPFTFGPGTKVDIK	> 10	> 10	> 10	> 10	> 10	> 10	> 10
BD56-1398 (protein) chain 1: QVQLVQSGAEVKKPGASVKVSCMASRYTFTSYYLHWVRQAPGQGLQWMGIINPSGGSTTYAQKFQGRVTMTSDTSTSTVHMELSSLRSEDTAVYFCARGGVAPNLRGLFDYWGQGTLITVSS chain 2: DIQMTQSPSTLSASVGDRVIITCRASQSIHTWLAWYQQKPGKAPSLLIYKASTLESGVPSRFSGSGSGTEFTLTISSLQPDDFATYYCQQYNSFSWTFGQGTKVEIK	> 10	> 10	> 10	> 10	> 10	> 10	> 10
BD56-1410 (protein) chain 1: QVQLVESGGGVVQPGRSLRLSCAASGFTFRNYGMHWVRQAPGKGLEWVAVIWYDGSNKYYADSVKGRFTISRDNSKNTLFLQMNSLRVEDTAVYYCARDYGVGATMEDYFDYWGQGTLVTVSS chain 2: QSVLTQPPSASGTPGQRVSISCSGSSSNIGDNYVYWYQQFPGMAPKLLIYRNSQRPSGVPDRFSASKSGTSASLAISGLRSEDEADYYCAAWDDGLGGWVFGGGTKLTVL	1.27	0.915	0.34	0.369	> 10	1.82	0.775
BD56-1428 (protein) chain 1: QVQLVESGGGVVQPGRSLRLSCAASGFTFRNYGMHWVRQAPGKGLEWVAVIWNDGSNKYYGDSVKGRFTISRDNSKNTLYLQMNSLRAEDTAVYYCARDYGVGATMEDYFDYWGQGTLVTVSS chain 2: QSVLTQPPSASGTPGQRVTISCSGSSSNIGINYVYWYYHLPGTAPKLLIYKNNQRPSGVPDRFSGSKSGTSASLAIGGLRSEDEADYYCAAWDDSLGGWVFGGGTKLTVL	0.537	0.925	0.495	0.498	2.61	2.64	1.3
BD56-1413 (protein) chain 1: QVHLVQSGAEVKKPGASVKVSCKASGDTFTNHYIHWVRQAPGQGLEWMGIINPSGGSTSYAQKFQGRVTMTRDTSTSTVYMELSSLRSEDTAVYYCARDSSFIPQKYYYGLDVWGLGTTVTVSS chain 2: DIQMTQSPSSLSASVGDRVTITCRASQSISNYLNWYQQKPGKAPKLLIYAASSLQSGVPSRFSGGGSGTDFALTISTLQPEDFATYYCQQSYITPPTFGQGTKVEIK	> 10	> 10	> 10	> 10	> 10	> 10	> 10
COV2-2539 (protein) chain 1: QVQLAQSGAEVKKPGASVKVSCKAGGYTFTSYDINWVRQATGQGLEWMGWMNSNSGNAGYAQKFQGRVTMTRDTSISTAYMELSSLRSEDTAVYYCARMRTGWPTHGRPDDFWGRGTLVTVSS chain 2: QSVLTQPPSASGTPGQRVTISCSGSNSNIGSYTVNWYQQFPGTAPKLLIYDNNQRTSGVPDRFSGSKSGTSASLAISGLQSEDEASYYCLAWDDSLNGLVFGGGTKLTVL	> 10	> 10	> 10	> 10	> 10	> 10	0.186
BD56-1429 (protein) chain 1: EVQLLESGGGLVQPGGSLRLSCAASGFTFSSYAMNWVRQAPGKGLEWVSGISAYGSSTYHADSVKGRFTISRDNSKNTLYLQMNSLRAADTAVYYCAKDKYPGGPYYYMDVWGEGTTVTVSS chain 2: DIQMTQSPSSLSASVGDRVTITCQASQDISNSLNWYRQKPGKAPKLLIYDASNLETGVPSRFSGSGSGTDFTFTISSLQPEDIATYYCQQYDNLPITFGHGTRLEIK	> 10	> 10	> 10	> 10	> 10	> 10	> 10
BD56-1436 (protein) chain 1: QVQLVESGGGVVQPGRSLRLSCAASGFTFSSYAMHWVRQAPGKGLEWVAVILDDGSGKFYADSVKGRFTISRDNSKNTLYLQMNSLRPEDTAIYYCARDSSSVQSLVSWFDPWGQGSLVTVSS chain 2: DIQMTQSPSSLSASVGDRVTITCRASQSIGTYLNWYQQKPGKAPKLLIYVASSLQSGVPSRFSGSGSGTDFTLTISSLQPEDFATYYCQQSYSSPPWTFGQGTKLQIK	> 10	> 10	> 10	> 10	> 10	> 10	> 10
BD56-1420 (protein) chain 1: QVQVVESGGGVVQPGRSLRLSCAASGFTFSSYGMHWVRQAPGKGLEWVAVISYDGNDKFYGDSVKGRFTISRDNSKNILYLQMNSLRGDDTAVYHCAKDGPWELRYFDWLPRPHYLDYWGQGTLVAVSS chain 2: QSVLTQPPSVSAAPGQKVTISCSGSNSNIANNYVSWYQQLPGTAPQLLIYDDDKRPSGIPDRFSGSKSGTSATLGITGLQTGDEADYYCGAWDSSLSTWVFGGGTKLTVL	0.356	0.00584	0.235	0.371	> 10	0.966	0.00284
BD56-1422 (protein) chain 1: QVQLVESGGGVVQPGRSLRLSCAASGFTFTSYGMHWVRQAPGKGLEWVALISYDGSNKFYADSVRGRFTISRDNSKNTLYLQMDSLRADDTAVYYCAKDGPWEFRSFDWLGSPYYFHYWGQGALVTVSS chain 2: QSVLTQPPSVSAAPGQKVSISCSGSNSNIGNNYVSWYQQLPTTAPKLLIYDNDKRPSGIPDRFSGSKSGTSVTLGITGLQTGDEADYYCGTWDSSLSTWVFGGGTKLTVL	0.93	0.00266	0.34	0.113	–	–	0.0036
BD56-1401 (protein) chain 1: QVQLVESGGGVVQPGRSLRLSCAASGFNFRTYAMHWVRQAPGKGLEWVAIISYDGSIKDYADSVKGRFTISRDNSKNTLYVQMNNLRADDTALYYCAKGGGLYCSATTCSTGYFDYWGQGTLVTVSS chain 2: EIVLTQSPGTLSLSPGERATLSCRASQSVSSSYLAWYRQKPGQAPRLLISDASSRAPGIPDRFSGSGSGTDFTLTISRLEPEDFAVYYCQQYGSSPLTFGGGTKVEIK	> 10	> 10	> 10	> 10	> 10	> 10	> 10
BD56-1423 (protein) chain 1: EMQLVESGGGVVQPGGSLRLSCAASGFTFNYYAMHWVRQAPGKGLEWISLISGDGDSSYYADSVKGRFTISRDNSKNSLYLQMNSLRTEDTALYYCAKDCIAAPTYYIDVWGKGTTVTVSS chain 2: DIQMTQSPSSLSASVGDRVTITCQASQDISNYLNWYQQKPGKAPKLLIYDASNLETGVPSRFSGSGSGTVFTFTISSLQPEDIATYYCQQYDHHPAITFGGGTKVEIK	> 10	> 10	> 10	> 10	> 10	> 10	> 10
BD56-1412 (protein) chain 1: QVQLVESGGGVVQPGRSLRLSCAASGFTFRHYGMHWVRQAPGKGLEWVAGISFDGDNKYNTDLVKGRFTISRDNSRNTLYLHMNTLRAEDTAIYYCAKMGGTYCAAGNCFASYFDYWGQGTLVTVSS chain 2: DIQMTQSPSSLSASVGDRVTITCQTSQGISNYLNWYQHKPGKAPKLLIYGATSLETGVPSRFSGSGSGTDFSFTISSLQPEDVATYYCQQYASLPLAFGGGTKVDLK	> 10	> 10	> 10	> 10	> 10	> 10	> 10
